PubChem BioAssay AID1259414, Drosophila RNAi Screening Center, 2018
Aim: 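Genome-wide screen for host control of endosymbiont load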 (primary screen). Cells: Drosophila JW18 cells infected with Wolbachia. Knock-down reagent: long dsRNA against Drosophila genes, 0.25 µg dsRNA per well of a 384-well plate. Duration: 5 days. Challenge: cells persistently infected with Wolbachia before knock-down; no added drug. Read-out: 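Automated imaging of bacterial rRNA staining divided by host cell count, reported as plate-normalised robust z-score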. Scale: Wolbachia per cell robust z: higher = more Wolbachia per host cell than the plate typical. Active means: 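Active if absolute robust z reaches 1.5 in two or more of three replicates, leaving out multi- or no-target dsRNAs, genes unexpressed in JW18 and A1 wells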.
In all, the deposit lists about 24,000 reagents; shown is an unselected part of those with a known target gene and a result. Over the whole deposit, about 1,210 (5%) are marked active. 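Inactive calls also include excluded dsRNAs with several or no targets, genes unexpressed in JW18, and well A1, regardless of score.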 A plus sign joins genes that one reagent is predicted to hit.

CG7239 [DRSC23113] showed Wolbachia per cell robust z, rep 1 = 0.25; Wolbachia per cell robust z, rep 2 = -0.175; Wolbachia per cell robust z, rep 3 = 0.715; inactive. After knock-down of Uev1A [DRSC09763], the screen gave Wolbachia per cell robust z, rep 1 = 0.802; Wolbachia per cell robust z, rep 2 = 1.2; Wolbachia per cell robust z, rep 3 = -3.16; inactive. After knock-down of Mapmodulin [DRSC06956] the results were Wolbachia per cell robust z, rep 1 = 0.47; Wolbachia per cell robust z, rep 2 = -0.497; Wolbachia per cell robust z, rep 3 = -0.148; inactive. With knock-down of CG8128 [DRSC20084] the results were Wolbachia per cell robust z, rep 1 = -2.06; Wolbachia per cell robust z, rep 2 = 0.59; Wolbachia per cell robust z, rep 3 = -0.754; inactive. Slu7 [DRSC14729] showed Wolbachia per cell robust z, rep 1 = 1.63; Wolbachia per cell robust z, rep 2 = 1.83; Wolbachia per cell robust z, rep 3 = 2.02; active. Depletion of Slu7 [DRSC23582] came out at: Wolbachia per cell robust z, rep 1 = 2.26; Wolbachia per cell robust z, rep 2 = 2.89; Wolbachia per cell robust z, rep 3 = 2.74; active.

With knock-down of CG45078 + fau + CG45076 [DRSC16945], the record shows Wolbachia per cell robust z, rep 1 = 0.759; Wolbachia per cell robust z, rep 2 = -0.0681; Wolbachia per cell robust z, rep 3 = 0.305; inactive. Against La [DRSC03358], the values are Wolbachia per cell robust z, rep 1 = 1.59; Wolbachia per cell robust z, rep 2 = 0.81; Wolbachia per cell robust z, rep 3 = 1.65; active. Silencing of lncRNA:CR43285 + snRNA:U1:95Cc [DRSC13640] resulted in: Wolbachia per cell robust z, rep 1 = 0.98; Wolbachia per cell robust z, rep 2 = 2.33; Wolbachia per cell robust z, rep 3 = 1.99; inactive.

An excerpt from above, reduced to “Wolbachia per cell robust z, rep 3”:
Mapmodulin [DRSC06956]	-0.148
CG8128 [DRSC20084]	-0.754

The listing continues.
With knock-down of Or85f [DRSC16769], the screen gave Wolbachia per cell robust z, rep 1 = -5.81; Wolbachia per cell robust z, rep 2 = -1.03; Wolbachia per cell robust z, rep 3 = -0.656; inactive. l(2)k14505 [DRSC03106] gave Wolbachia per cell robust z, rep 1 = -7.6; Wolbachia per cell robust z, rep 2 = -0.612; Wolbachia per cell robust z, rep 3 = -0.327; inactive. Against nord [DRSC04210] the deposit lists Wolbachia per cell robust z, rep 1 = -3.62; Wolbachia per cell robust z, rep 2 = -0.133; Wolbachia per cell robust z, rep 3 = 1.18; inactive. nord [DRSC04361] gave Wolbachia per cell robust z, rep 1 = -1.22; Wolbachia per cell robust z, rep 2 = 0.735; Wolbachia per cell robust z, rep 3 = 0.0754; inactive. After knock-down of CG15126 [DRSC06548], the record shows Wolbachia per cell robust z, rep 1 = -0.271; Wolbachia per cell robust z, rep 2 = -0.262; Wolbachia per cell robust z, rep 3 = -3.49; inactive. Depletion of CG42449 [DRSC18084] resulted in: Wolbachia per cell robust z, rep 1 = 0.113; Wolbachia per cell robust z, rep 2 = -0.00011; Wolbachia per cell robust z, rep 3 = -3.68; inactive.

Against CG42449 [DRSC25316], the entry reads Wolbachia per cell robust z, rep 1 = -2.91; Wolbachia per cell robust z, rep 2 = -2.85; Wolbachia per cell robust z, rep 3 = -2.26; inactive. After knock-down of CG17544 [DRSC02624], the screen gave Wolbachia per cell robust z, rep 1 = 0.575; Wolbachia per cell robust z, rep 2 = -0.373; Wolbachia per cell robust z, rep 3 = -0.542; inactive. Knock-down of CG17544 [DRSC25562] gave: Wolbachia per cell robust z, rep 1 = 1.44; Wolbachia per cell robust z, rep 2 = 0.138; Wolbachia per cell robust z, rep 3 = -0.0291; inactive. Against trem [DRSC15575], the entry reads Wolbachia per cell robust z, rep 1 = 0.0417; Wolbachia per cell robust z, rep 2 = 0.536; Wolbachia per cell robust z, rep 3 = 0.0761; inactive. After knock-down of nocte [DRSC18123], the record shows Wolbachia per cell robust z, rep 1 = 0.481; Wolbachia per cell robust z, rep 2 = -0.563; Wolbachia per cell robust z, rep 3 = 0.285; inactive. Knock-down of nocte [DRSC28453] gave: Wolbachia per cell robust z, rep 1 = 0.224; Wolbachia per cell robust z, rep 2 = -0.021; Wolbachia per cell robust z, rep 3 = -0.673; inactive.

Uros2 [DRSC16505] scored Wolbachia per cell robust z, rep 1 = 1.24; Wolbachia per cell robust z, rep 2 = -4.82; Wolbachia per cell robust z, rep 3 = 1.15; inactive. With knock-down of Rae1 [DRSC04577] the results were Wolbachia per cell robust z, rep 1 = 0.214; Wolbachia per cell robust z, rep 2 = 0.979; Wolbachia per cell robust z, rep 3 = 0.296; inactive. Knock-down of CG4789 [DRSC19918] resulted in: Wolbachia per cell robust z, rep 1 = 0.093; Wolbachia per cell robust z, rep 2 = -0.00859; Wolbachia per cell robust z, rep 3 = 0.544; inactive.
